Results deposited as PubChem BioAssay AID504761 (Drosophila RNAi Screening Center, 2011).
The deposit covers about 22,000 reagents; below is a random part of those with a known target gene and a result. Over the whole deposit, 116 (0.52%) are marked active. 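Calls depend on retest data that are not deposited; infection was ranked per plate without normalising between plates; the unit of the infection score is not given.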 Raw values vary from plate to plate and are shown uncorrected. Not all columns of the deposit are shown. No sequences are given here. Not given: the amount of reagent, the time to read-out.

- Assay: 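Insect host genes that dengue virus relies on to spread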 (primary screen)
- Cell system: D.Mel-2 cells from Drosophila
- Knock-down reagent: long dsRNA against Drosophila genes
- Conditions: infection with dengue virus type 2; dose and infection time not stated
- Detection: 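Per well on two replicate plates, imaging gave the percent of cells positive for viral envelope protein, ranked by infection, and a nuclear count of cells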
- Direction: infection score: higher = more virus-infected cells; cell count: higher = more cells in the well
- Active means: 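Low infection ranks in the two replicates (chance level up to 0.065) followed by a retest with a 1.5-fold or larger significant decrease, p below 0.05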
- Meaning of the calls: active = confirmed: knock-down lowers infection; inactive = not picked or not confirmed

For CG15256 [DRSC01940], the values are infection score, replicate 1 = 1.73; cell count, replicate 1 = 6522; inactive. blow (blown fuse) [DRSC07586] gave infection score, replicate 1 = 34.4; cell count, replicate 1 = 5938; inactive. After knock-down of blow (blown fuse) [DRSC27716], the screen gave infection score, replicate 1 = 3.43; cell count, replicate 1 = 6879; inactive. Depletion of ranshi [DRSC16564] gave: infection score, replicate 1 = 4.39; cell count, replicate 1 = 6212; inactive. Against ranshi [DRSC29605], the values are cell count, replicate 1 = 382; inactive.

A few values from the list.
Result for ranshi [DRSC16564] under “call”: inactive
blow (blown fuse) [DRSC27716], call: inactive

The results go on:
For eIF3c (eukaryotic translation initiation factor 3 subunit c) [DRSC06905], the values are infection score, replicate 1 = 9.67; cell count, replicate 1 = 3010; inactive. Against CG16837 [DRSC04283], the values are infection score, replicate 1 = 2.96; cell count, replicate 1 = 6970; inactive. CG16837 [DRSC26178] showed infection score, replicate 1 = 4.65; cell count, replicate 1 = 2602; inactive. CG11381 [DRSC17780] showed infection score, replicate 1 = 4.24; cell count, replicate 1 = 6551; inactive. For CG11381 [DRSC25125] the deposit lists infection score, replicate 1 = 5.54; cell count, replicate 1 = 5776; inactive. Depletion of CG18301 [DRSC02662] gave: infection score, replicate 1 = 7.4; cell count, replicate 1 = 6229; inactive.

With knock-down of CG1113 [DRSC12163], the screen gave infection score, replicate 1 = 8.98; cell count, replicate 1 = 6078; inactive.
